This is an account of results in patent US20240181044A1.

The target of this assay is RBD (SARS-COV-2) (UniProt P0DTC2). Nature of the assay: SPR. For orientation: In SPR one partner is held on a chip, and binding of the other changes the refractive index at the surface.

As usually defined, the Kd is the constant that tells how readily two partners part at equilibrium. In turn, C135 gave a Kd of 2.4 nM.
